A mixed list of measured activities; the numbers were collected in NIAID ChemDB.

Shared fields: growth or infection tests; species: HIV-1; cell line: MT-4; endpoint: EC50

ECn: concentration that inhibits the pathogen or its effect by n%. An empty or dashed field is not shown. Conditions beyond the fields shown may differ between rows.

compound | strain or isolate | mutations | method | result
CC(=O)OCC1=C[C@@H]2C(=O)[C@]3(C=C(C)[C@H](OC(C)=O)[C@@]3(O)[C@@H]1OC(C)=O)[C@H](C)C[C@@H]1[C@H]2C1(C)C | IIIB MKC-442-resistant |  | cytopathic effect / MTT | 0.051 µM
Cc1nc2c(c(C)c(C)n2Cc2cn[nH]c2)c(-c2ccc(Cl)cc2)c1[C@H](OC(C)(C)C)C(=O)O | IIIB |  | MTT | 0.0249 µM
C=CCOCn1c(Cc2cccc(OCC=C)c2)c(CC)c(=O)[nH]c1=O | RT-Y181C Mutant NNRTI-resistant |  | cytopathic effect / MTT | 4 µM
CC(C)/C=C1\C(=O)Nc2ccc(S(=O)(=O)N(CC(C)C)C[C@@H](O)[C@H](Cc3ccccc3)NC(=O)O[C@H]3CO[C@H]4OCC[C@H]43)cc21 | F | PR-L10F M46I M71V I84V | cytopathic effect / MTT | 0.158 µM
C=CCOc1cccc(Cc2nc(SC)[nH]c(=O)c2CC)c1 | RT-Y181C Mutant NNRTI-resistant |  | cytopathic effect / MTT | >80 µM
CC(C)CN(C[C@@H](O)[C@H](Cc1ccccc1)NC(=O)O[C@H]1CO[C@H]2OCC[C@H]21)S(=O)(=O)c1ccc2c(c1)/C(=C/c1ccco1)C(=O)N2 | F | PR-L10F M46I M71V I84V | cytopathic effect / MTT | 0.038 µM
CCOC(=O)C1C/C(=C\c2cc(O)c(O)c(O)c2)C(=O)/C(=C/c2cc(O)c(O)c(O)c2)C1 |  |  | cytopathic effect / MTT | 12.5 µM
O=c1c2ccccc2sn1/N=C/c1ccc(Cl)cc1 |  | K103N + Y181C | MTT | >26 µM
CN(C)C(=O)C(=O)N1CCn2c(nc(C(=O)NCc3ccc(F)cc3)c(O)c2=O)C(N(C)C(=O)C(=O)N(C)C)C1 |  |  | p24 | <1 µM
CCc1c(Cc2cc(C)cc(C)c2)n(COCCO)c(=O)[nH]c1=O |  |  | MTT | 0.02 µM
COCCNC(=O)CSc1cnc(Nc2ccc(C#N)cc2)nc1Oc1c(C)cc(C#N)cc1C |  | L100I | MTT | 0.018 µM
[O-][n+]1nc2c(Br)cnn2c2cc(Cl)ccc21 | IIIB |  | cytopathic effect / MTT | >200 µM
O=c1c2ccccc2sn1/N=C/c1ccccc1O |  |  | MTT | >18 µM
C=CCCc1cccc(Cc2c(CC)c(=O)n(COCC)c(=O)n2COCC)c1 | RT-Y181C Mutant NNRTI-resistant |  | cytopathic effect / MTT | >45 µM
Cc1ccc2sn(/N=C/c3cccc(Cl)c3)c(=O)c2c1 |  |  | MTT | >59 µM
Cc1cc(C#N)cc(C)c1Oc1nc(Nc2ccc(C#N)cc2)ncc1SCC(N)=O |  | E138K | MTT | 0.0209 µM
CCOCn1c(Cc2cccc(CCC=O)c2)c(CC)c(=O)[nH]c1=O | RT-Y181C Mutant NNRTI-resistant |  | cytopathic effect / MTT | 51 µM
N#Cc1cnn2c1n[n+]([O-])c1ccccc12 | IIIB |  | cytopathic effect / MTT | >54 µM
Cc1cc(CNC(=O)c2nc3n(c(=O)c2O)CCN(C)CC3N(C)C(=O)C(=O)N(C)C)ccc1F |  |  | p24 | <1 µM
Cc1ccnc2c1NC(=O)c1cccnc1N2C1CC1 | A17 | K103N/Y181C | p24 / ELISA | >10 µM
CCn1c(C)c(C)c2c(-c3ccc(Cl)cc3)c(C(OC(C)(C)C)C(=O)O)c(C)nc21 | IIIB |  | MTT | 0.4 µM
Cc1ccc2sn(/N=C/c3cccc(O)c3)c(=O)c2c1 |  |  | MTT | >16 µM
O=C(CSc1nnnn1-c1ccccc1Br)Nc1ccccc1[N+](=O)[O-] |  |  | p24 | <10 µM
Cc1ccc2sn(/N=C/c3ccccc3[N+](=O)[O-])c(=O)c2c1 |  | K103N + Y181C | MTT | >100 µM
Cc1cc(C)c(-n2nnnc2SCC(=O)Nc2cccc(Cl)c2C#N)c(C)c1 |  |  | p24 | <10 µM
O=C1/C(=C/c2ccc(O)c(O)c2)CN(Cc2ccccc2)C/C1=C\c1ccc(O)c(O)c1 |  |  | cytopathic effect / MTT | >4.7 µM
Cc1nc2c(c(C)c(C)n2Cc2cccs2)c(-c2ccc(Cl)cc2)c1[C@H](OC(C)(C)C)C(=O)O | IIIB |  | MTT | 0.02615 µM
CN(C)S(=O)(=O)N(C)C1COCCn2c1nc(C(=O)NCc1ccc(F)cc1)c(O)c2=O |  |  | p24 | <1 µM
CCc1c(Cc2cc(C)cc(C)c2)n(COCCF)c(=O)[nH]c1=O | Clinical isolates | Y181C | MTT | 0.5 µM
Cc1ccc(/C=C2\C(=O)Nc3ccc(S(=O)(=O)N(CC(C)C)C[C@@H](O)[C@H](Cc4ccccc4)NC(=O)O[C@H]4CO[C@H]5OCC[C@H]54)cc32)s1 | LAI |  | cytopathic effect / MTT | 0.013 µM
CCCCn1c(C)c(C)c2c(-c3ccc(Cl)cc3)c(C(OC(C)(C)C)C(=O)O)c(C)nc21 | IIIB |  | MTT | 0.016 µM
CC1(C)c2nc(C(=O)NCc3ccc(F)cc3)c(O)c(=O)n2CCN1Cc1cocn1 |  |  | p24 | <1 µM
CCN1C[C@H](C)N2C(=C(O)C3C(=O)N4Cc5ccc(F)cc5C(=O)NCCCCCCNC(=O)C(=N4)C32)C1=O | LAII(IIIB) |  |  | 2.35 µM
O=[N+]([O-])c1ccc2c(c1)[n+]([O-])nc1c(Br)cnn12 | IIIB |  | cytopathic effect / MTT | >200 µM
N#Cc1cccc(-n2nnnc2SCC(=O)Nc2ccccc2[N+](=O)[O-])c1 |  |  | p24 | <10 µM
Cc1cc(C#N)cc(C)c1Oc1nc(Nc2ccc(C#N)cc2)ncc1SCC(=O)NC1CCN(C(=O)OC(C)(C)C)CC1 |  | E138K | MTT | 0.0488 µM
C#CCOCn1c(Cc2ccccc2)c(CF)c(=O)[nH]c1=O |  |  | MTT | 10 µM
C[C@H]1CN(C)C(=O)C2=C(O)C3C(=O)N4Cc5ccc(F)cc5OCCCCCNC(=O)C(=N4)C3N21 | LAII(IIIB) |  |  | 1.92 µM
C=C(C)COCn1c(Cc2ccccc2)c(CO)c(=O)[nH]c1=O | IIIB | EFV:K103R+V179D+P225H | MTT | >20 µM
CN1CCn2c(nc(C(=O)NCc3ccc(F)cc3)c(O)c2=O)C(N(C)C(=O)C(=O)N2CCOCC2)C1 |  |  | p24 | <1 µM
COc1ccc(/C=N/n2sc3ccc(C)cc3c2=O)cc1 |  |  | MTT | >55 µM
N#Cc1cnn2c1nnc1cc([N+](=O)[O-])ccc12 | IIIB |  | cytopathic effect / MTT | >1.5 µM
NS(=O)(=O)c1ccc(NC(=O)CSc2nnnn2-c2cc(Cl)ccc2Cl)c(Cl)c1 |  |  | p24 | <10 µM
CCN1C[C@H](C)N2C(=C(O)C3C(=O)N4Cc5ccc(F)cc5OCCCCCS(=O)(=O)N(CC)C(=N4)C32)C1=O | LAII(IIIB) |  |  | 0.5 µM
Clc1ccc2nnc3ccnn3c2c1 | IIIB |  | cytopathic effect / MTT | >200 µM
CCN1C[C@H](C)N2C(=C(O)C3C(=O)N4Cc5ccc(F)cc5OCCCCCS(=O)(=O)N(C5CC5)C(=N4)C32)C1=O | LAII(IIIB) |  |  | 0.6 µM
Cc1cc(C#N)cc(C)c1Oc1nc(Nc2ccc(C#N)cc2)ncc1SCC(=O)NC1CC1 |  | Y188L | MTT | 0.0292 µM
CCOCn1c(Cc2cccc(OCC=O)c2)c(CC)c(=O)[nH]c1=O | RT-Y181C Mutant NNRTI-resistant |  | cytopathic effect / MTT | 15 µM
Cc1cc(C#N)cc(C)c1Oc1nc(Nc2ccc(C#N)cc2)ncc1SCC(=O)NCc1ccc(O)cc1 |  | Y181C | MTT | 0.0384 µM
C=CCCc1cccc(Cc2c(CC)c(=O)[nH]c(=O)n2COCC)c1 | RT-Y181C Mutant NNRTI-resistant |  | cytopathic effect / MTT | 2 µM
C#CCNC(=O)CSc1cnc(Nc2ccc(C#N)cc2)nc1Oc1c(C)cc(C#N)cc1C |  | Y188L | MTT | 0.0193 µM
Nc1nc(=O)n([C@H]2C=C[C@@H](CO)O2)cc1F | XM-ABC-resistant | RT-K65R L74V M184V Y115F | p24 | <14 µM
C=CCOc1cccc(Cc2nc(SCC(C)C)nc(OCC(C)C)c2CC)c1 | IIIB |  | cytopathic effect / MTT | >100 µM
C=CCNC(=O)CSc1cnc(Nc2ccc(C#N)cc2)nc1Oc1c(C)cc(C#N)cc1C |  | RES056 | MTT | 0.1717 µM
O=C1/C(=C/c2ccc(Cl)c(Cl)c2)CSC/C1=C\c1ccc(Cl)c(Cl)c1 |  |  | cytopathic effect / MTT | >31 µM
Nc1nc(NC2CC2)c2ncn([C@H]3C=C[C@@H](CO)C3)c2n1 | XM-M184V | RT-M184V | p24 | <9.5 µM
Cc1cc(C#N)cc(C)c1Oc1nc(Nc2ccc(C#N)cc2)ncc1SCC(=O)NCC1CCCO1 |  | Y181C | MTT | 0.0489 µM
CCN(CC)c1ccc(/C=C2\C(=O)Nc3ccc(S(=O)(=O)N(CC(C)C)C[C@@H](O)[C@H](Cc4ccccc4)NC(=O)O[C@H]4CO[C@H]5OCC[C@H]54)cc32)cc1O | LAI |  | cytopathic effect / MTT | 0.065 µM
CCOCn1c(Cc2cccc(CCC3CO3)c2)c(CC)c(=O)[nH]c1=O | RT-Y181C Mutant NNRTI-resistant |  | cytopathic effect / MTT | 80 µM
O=C(O)CC1C/C(=C\c2cc(O)c(O)c(O)c2)C(=O)/C(=C/c2cc(O)c(O)c(O)c2)C1 |  |  | cytopathic effect / MTT | 2 µM
CCc1c(Cc2cc(C)cc(C)c2)n(Cc2ccc(C#CCO)cc2)c(=O)[nH]c1=O | Clinical isolates | Y181C | MTT | 0.1 µM
CCN1C[C@H](C)N2C(=C(O)C3C(=O)N4Cc5cc(F)c(F)cc5OCCCCCN(C)C(=O)C(=N4)C32)C1=O | LAII(IIIB) |  |  | 2.85 µM